Source: ChEMBL document CHEMBL3988442, “University of Dundee, Small-Polar-MMV Screening Library” (2021).

A: 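Whole-cell growth test on Mycobacterium tuberculosis, read after 3 days in glucose-containing 7H9 medium; the read-out is not stated. Concentration: 500 µM. The record gives no direction; compounds that gave an IC50 in retests scored well above the rest, so higher reads as more growth inhibition. Size under these conditions: about 18,000 compounds, about 1,400 of them at 50% or above in at least one test.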
B: 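Growth of Mycobacterium tuberculosis over 4 days (cholesterol / DPPC medium with tyloxapol); the read-out is not stated. Compounds at 500 µM. Higher reads as more growth inhibition (inferred: compounds with an IC50 in retests scored well above the rest). About 18,000 compounds were tested under these conditions; 5% (about 900) showed 50% or more at least once.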

Each number is a percent effect as filed.
How 0% and 100% were set is not recorded. Most values in the screen are low, and negative values occur.
The entries come from a sample that favours strong results.
A dash means the value is not listed here; it may have been measured.

Compound: CC(N)CN1CCN(c2ncccn2)CC1 (stereo unspecified)
A: -6.778

Compound: CCNC(=O)CN(C)C(=O)c1cc(Cl)ccc1O
B: 4.296

Compound: Cc1cc(CNC(=O)NCc2ncnn2C)c(C)o1
B: 1.068

Compound: COc1ccc(CN2CC(N3CCOCC3)C2)cn1
B: -1.814

Compound: NCC(CO)Cc1cccc(Br)c1 (stereo unspecified)
A: 49.36

Compound: CC(C)=CCO[C@@H]1COCC[C@H]1NC(=O)CN(C)C
A: 8.002

Compound: CCN1CCCC1CNC(=O)c1c[nH]nn1 (stereo unspecified)
A: 2.808

Compound: CCOCCNC(=O)N1CCN(S(C)(=O)=O)CC1
A: 2.966

Compound: CN(C)[C@H]1CN(C(=O)Nc2ccccc2F)C[C@@H]1O
B: 1.804

Compound: CC1CC(=O)N(C)c2ccccc2N1 (stereo unspecified)
A: 2.851

Compound: CC1(C)OCCC1CN (stereo unspecified)
A: -0.277

Compound: NC(=O)CN1CCCC(Nc2ccc(F)c(F)c2)C1 (stereo unspecified)
A: 44.26

Compound: Cc1ccc(NC(=O)N2CCCN(C)CC2)cc1
B: 3.28

Compound: O[C@@H](Cc1ccccn1)c1ccccc1
A: 25.49

Compound: NS(=O)(=O)CC1CCOCC1
A: 7.782

Compound: CCn1ccc(C(=O)NCc2ccco2)n1
A: 48.51
B: 67.85

Compound: CCS(=O)(=O)NCCNC(=O)C1(C)CCCC1
A: 14.25

Compound: Cc1cccc(OCCc2noc(C3CNC3)n2)c1
A: 106.7
B: 114.8

Compound: Cc1cncc(C(=O)NC(CO)CC(C)(C)C)c1 (stereo unspecified)
A: 8.768

Compound: CN(C)CCN(CCN(C)C)C(=O)NC1CC1
B: 1.225

Compound: CCN(C(=O)Cc1csc(N2CCCC2=O)n1)C1CC1
B: 11.13

Compound: CCC(=O)N1CCCN(C(=O)C(CC)(CC)CN)CC1
B: -3.475

Compound: c1ccc(CNC2CCNC2)cc1 (stereo unspecified)
A: 4.046

Compound: COc1ncc(N)c(C)c1Br
A: -41.97

Compound: CC(C)OCCn1cnc(C#N)c1C#N
B: 9.824

Compound: C[C@@H]1COC[C@H](c2ccccc2)N1
A: -3.23

Compound: CNC(=O)C(NC(=O)c1cnccn1)c1ccccc1 (stereo unspecified)
B: -11.02

Compound: CC1CCCN(CCNS(=O)(=O)CCCS(C)(=O)=O)C1 (stereo unspecified)
A: 15.45

Compound: COc1cccc(Cl)c1CN
B: -8.885

Compound: CC(=O)Nc1cccc(CN(C)S(=O)(=O)C(C)C)c1
A: -7.572

Compound: CSCCC(=O)NCc1ccccc1F
A: 37.26

Compound: COC1(CN)CCC(C(F)F)CC1 (stereo unspecified)
A: 7.84

Compound: N#Cc1sccc1N1CCNCC1
B: 2.916

Compound: CN(CCn1ccnc1)Cc1ccccc1OCCO
A: 4.999

Compound: Cc1c(C(=O)NCCc2ccsc2)cnn1C
A: 18.56

Compound: COc1ccccc1NC(=O)C(C)N1CCNC(=O)C1 (stereo unspecified)
A: 5.432

Compound: Cn1nnnc1SCCNCc1ccc(F)cc1
A: 21.18
B: 43.1

Compound: COc1cccc2c1CCN(C(=O)c1cnn(C)c1)C2
B: 18.97

Compound: O=C(Cn1cccn1)NCCc1ccc2c(c1)OCO2
A: 53.27

Compound: CC(=O)N1CCC(NC(=O)NCc2sccc2C)CC1
A: 12.35

Compound: COc1cccc(OCCNC(N)=O)c1
A: -4.913

Compound: C=C(C)CN1CCN(C(=O)N(C)C)CC1
A: -3.745

Compound: O[C@H]1CN(Cc2cccnc2)C[C@@H]1N1CCCCC1
B: 12.82

Compound: Cc1nc(C)n(C(C)CC(=O)Nc2cccnc2)n1 (stereo unspecified)
A: -0.7261

Compound: COc1cccnc1CN
A: 22.79

Compound: COc1cc(F)cc(NC(=O)N2CCCC2)c1
B: 1.049

Compound: NC(=O)c1cnn(-c2ccccn2)c1N
A: 14.82

Compound: CCc1noc(COC2CNC2)n1
A: 14.77

Once more, the final 3:

Compound,A,B
COc1cc(F)cc(NC(=O)N2CCCC2)c1,-,1.049
NC(=O)c1cnn(-c2ccccn2)c1N,14.82,-
CCc1noc(COC2CNC2)n1,14.77,-